Key:
Format in all cases: cell-based
Conditions in all cases: Oocyte
[1] = target: T1, Nicotinic acetylcholine receptor alpha6/alpha3/beta4 (Homo sapiens, UniProt P30926+P32297+Q15825); assay: Inhibition of human alpha6/alpha3beta4 nAChR expressed in Xenopus laevis oocytes assessed as inhibition of acetylcholine-induced current response measured after 5 min by two-electrode voltage-clamp relative to peIA
[2] = target: T2, Nicotinic acetylcholine receptor alpha6/alpha3/beta4 (Rattus norvegicus) (UniProt P04757+P12392+P43143); assay: Inhibition of rat alpha6/alpha3beta4 nAChR expressed in Xenopus laevis oocytes assessed as inhibition of acetylcholine-induced current response measured after 5 min by two-electrode voltage-clamp method relative to peIA
[3] = target: T2, Nicotinic acetylcholine receptor alpha6/alpha3/beta4 (Rattus norvegicus); assay: Inhibition of rat alpha6/alpha3beta4 nAChR expressed in Xenopus laevis oocytes assessed as inhibition of acetylcholine-induced current response by measuring fold change measured after 5 min by two-electrode voltage-clamp method relative to peIA
[4] = target: T1, Nicotinic acetylcholine receptor alpha6/alpha3/beta4; assay: Inhibition of human alpha6/alpha3beta4 nAChR expressed in Xenopus laevis oocytes assessed as inhibition of acetylcholine-induced current response by measuring fold change measured after 5 min by two-electrode voltage-clamp method relative to peIA

Amino acid sequences for entries named in this document (tags omitted).
UniProt P30926, whole entry, looked up: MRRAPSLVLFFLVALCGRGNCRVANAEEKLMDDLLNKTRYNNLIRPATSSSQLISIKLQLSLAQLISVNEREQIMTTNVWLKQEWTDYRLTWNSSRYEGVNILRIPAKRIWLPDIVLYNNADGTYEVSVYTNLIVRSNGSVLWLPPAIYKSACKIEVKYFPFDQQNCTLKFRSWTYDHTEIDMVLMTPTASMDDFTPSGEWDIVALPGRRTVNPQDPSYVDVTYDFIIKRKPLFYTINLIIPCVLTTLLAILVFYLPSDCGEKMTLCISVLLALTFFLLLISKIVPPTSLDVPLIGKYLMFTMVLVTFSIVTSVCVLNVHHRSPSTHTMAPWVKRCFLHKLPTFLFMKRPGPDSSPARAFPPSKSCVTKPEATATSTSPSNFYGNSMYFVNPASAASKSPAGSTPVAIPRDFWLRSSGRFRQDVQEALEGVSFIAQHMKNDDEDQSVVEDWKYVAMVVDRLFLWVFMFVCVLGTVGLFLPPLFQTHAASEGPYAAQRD
UniProt P32297, whole entry, looked up: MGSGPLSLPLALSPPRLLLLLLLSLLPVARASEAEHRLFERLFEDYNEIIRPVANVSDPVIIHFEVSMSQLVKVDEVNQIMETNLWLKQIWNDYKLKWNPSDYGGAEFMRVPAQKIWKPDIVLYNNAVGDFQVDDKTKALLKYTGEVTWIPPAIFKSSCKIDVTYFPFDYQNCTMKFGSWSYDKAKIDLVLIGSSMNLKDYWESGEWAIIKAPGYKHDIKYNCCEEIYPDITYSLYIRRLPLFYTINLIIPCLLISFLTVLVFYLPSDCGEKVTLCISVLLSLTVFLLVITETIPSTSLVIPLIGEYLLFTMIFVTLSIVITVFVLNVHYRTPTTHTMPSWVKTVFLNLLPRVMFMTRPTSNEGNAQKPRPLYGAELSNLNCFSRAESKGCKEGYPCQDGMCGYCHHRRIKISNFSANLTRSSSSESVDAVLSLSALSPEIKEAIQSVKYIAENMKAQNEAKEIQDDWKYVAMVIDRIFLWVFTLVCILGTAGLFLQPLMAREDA
UniProt Q15825, whole entry, looked up: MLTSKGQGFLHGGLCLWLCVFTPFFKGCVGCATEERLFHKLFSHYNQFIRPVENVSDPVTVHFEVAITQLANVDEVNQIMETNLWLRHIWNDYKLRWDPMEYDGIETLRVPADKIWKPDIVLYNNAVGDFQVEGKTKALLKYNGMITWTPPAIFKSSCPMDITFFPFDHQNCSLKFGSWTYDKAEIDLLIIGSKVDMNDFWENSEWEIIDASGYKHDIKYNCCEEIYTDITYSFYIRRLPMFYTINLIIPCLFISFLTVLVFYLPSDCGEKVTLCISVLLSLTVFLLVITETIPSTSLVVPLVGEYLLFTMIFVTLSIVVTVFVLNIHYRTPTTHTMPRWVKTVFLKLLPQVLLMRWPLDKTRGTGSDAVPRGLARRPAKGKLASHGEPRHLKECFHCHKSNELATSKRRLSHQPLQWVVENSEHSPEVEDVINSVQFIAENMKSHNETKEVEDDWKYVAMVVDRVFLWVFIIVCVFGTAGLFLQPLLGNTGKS
UniProt P04757, whole entry, looked up: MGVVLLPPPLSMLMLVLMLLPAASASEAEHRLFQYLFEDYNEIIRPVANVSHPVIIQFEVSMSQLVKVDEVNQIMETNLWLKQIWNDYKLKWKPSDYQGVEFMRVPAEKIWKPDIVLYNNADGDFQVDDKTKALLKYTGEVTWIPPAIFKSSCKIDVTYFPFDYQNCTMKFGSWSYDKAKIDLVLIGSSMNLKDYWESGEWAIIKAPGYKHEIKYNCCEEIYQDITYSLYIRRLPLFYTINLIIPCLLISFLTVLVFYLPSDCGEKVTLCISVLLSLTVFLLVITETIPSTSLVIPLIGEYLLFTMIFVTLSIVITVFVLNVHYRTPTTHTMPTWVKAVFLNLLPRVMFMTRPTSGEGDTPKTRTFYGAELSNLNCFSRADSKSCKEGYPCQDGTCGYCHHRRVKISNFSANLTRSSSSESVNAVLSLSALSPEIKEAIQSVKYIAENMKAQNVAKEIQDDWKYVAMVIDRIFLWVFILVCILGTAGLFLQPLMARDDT
UniProt P12392, whole entry, looked up: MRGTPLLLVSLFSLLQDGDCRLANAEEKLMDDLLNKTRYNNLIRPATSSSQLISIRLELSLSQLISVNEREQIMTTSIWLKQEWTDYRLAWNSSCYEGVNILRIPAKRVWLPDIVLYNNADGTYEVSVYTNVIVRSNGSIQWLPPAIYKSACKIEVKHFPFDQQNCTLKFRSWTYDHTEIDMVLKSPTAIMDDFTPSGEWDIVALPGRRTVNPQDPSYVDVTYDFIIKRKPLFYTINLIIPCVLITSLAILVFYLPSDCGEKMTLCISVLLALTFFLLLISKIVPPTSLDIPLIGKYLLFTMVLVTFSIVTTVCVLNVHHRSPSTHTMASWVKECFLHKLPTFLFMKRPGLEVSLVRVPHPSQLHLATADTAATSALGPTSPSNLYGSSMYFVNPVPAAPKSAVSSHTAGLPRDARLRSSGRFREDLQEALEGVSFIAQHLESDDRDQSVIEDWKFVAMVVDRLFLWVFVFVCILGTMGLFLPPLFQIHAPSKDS
UniProt P43143, whole entry, looked up: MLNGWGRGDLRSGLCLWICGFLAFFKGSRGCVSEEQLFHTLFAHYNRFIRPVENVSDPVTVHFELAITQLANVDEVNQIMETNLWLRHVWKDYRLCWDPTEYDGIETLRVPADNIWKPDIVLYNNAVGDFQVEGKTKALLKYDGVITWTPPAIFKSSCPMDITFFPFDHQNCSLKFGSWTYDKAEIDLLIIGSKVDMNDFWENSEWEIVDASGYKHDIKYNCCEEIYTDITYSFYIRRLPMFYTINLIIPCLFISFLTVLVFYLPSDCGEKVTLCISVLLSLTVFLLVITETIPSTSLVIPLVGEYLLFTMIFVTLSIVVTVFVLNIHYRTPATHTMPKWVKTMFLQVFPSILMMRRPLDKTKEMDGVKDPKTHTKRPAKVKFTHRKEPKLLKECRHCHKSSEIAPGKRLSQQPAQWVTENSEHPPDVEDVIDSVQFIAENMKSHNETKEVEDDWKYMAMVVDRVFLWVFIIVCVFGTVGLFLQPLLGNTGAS

Row | SMILES | deltalogIC50 [1] | deltalogIC50 [2] | fold change (FC) [3] | fold change (FC) [4]
1 | CC(C)C[C@@H]1NC(=O)[C@H](CCC(=O)O)NC(=O)[C@@H]2CCCN2C(=O)[C@H](Cc2cnc[nH]2)NC(=O)[C@H](CCCNC(=N)N)NC(=O)[C@H](C(C)C)NC(=O)[C@H](CC(N)=O)NC(=O)[C@@H]2CSSC[C@H](NC(=O)CN)C(=O)N[C@@H](CSSC[C@@H](C(N)=O)NC1=O)C(=O)N[C@@H](CO)C(=O)N[C@@H](Cc1cnc[nH]1)C(=O)N1CCC[C@H]1C(=O)N[C@@H](C(C)C)C(=O)N2 | -1.4 | -1.9 | 43 | 16
2 | CC(C)C[C@@H]1NC(=O)[C@H](CCCNC(=N)N)NC(=O)[C@@H]2CCCN2C(=O)[C@H](Cc2cnc[nH]2)NC(=O)[C@H](CC(N)=O)NC(=O)[C@H](C(C)C)NC(=O)[C@H](CO)NC(=O)[C@@H]2CSSC[C@H](NC(=O)CN)C(=O)N[C@@H](CSSC[C@@H](C(N)=O)NC1=O)C(=O)N[C@@H](CO)C(=O)N[C@@H](Cc1cnc[nH]1)C(=O)N1CCC[C@H]1C(=O)N[C@@H](C)C(=O)N2 | 0.9 | 0.9 | 3 | 7
3 | CC(C)C[C@@H]1NC(=O)[C@H](CCC(=O)O)NC(=O)[C@@H]2CCCN2C(=O)[C@H](Cc2cnc[nH]2)NC(=O)[C@H](CC(N)=O)NC(=O)[C@H](C(C)C)NC(=O)[C@H](CO)NC(=O)[C@@H]2CSSC[C@H](NC(=O)CN)C(=O)N[C@@H](CSSC[C@@H](C(N)=O)NC1=O)C(=O)N[C@@H](CO)C(=O)N[C@@H](CC(N)=O)C(=O)N1CCC[C@H]1C(=O)N[C@@H](C)C(=O)N2 | 0.7 | -0.3 | < 3 | 4
4 | CC(C)C[C@@H]1NC(=O)C(CCCC(=O)O)NC(=O)[C@@H]2CCCN2C(=O)[C@H](Cc2cnc[nH]2)NC(=O)[C@H](CC(N)=O)NC(=O)[C@H](C(C)C)NC(=O)[C@H](CO)NC(=O)[C@@H]2CSSC[C@H](NC(=O)CN)C(=O)N[C@@H](CSSC[C@@H](C(N)=O)NC1=O)C(=O)N[C@@H](CO)C(=O)N[C@@H](Cc1cnc[nH]1)C(=O)N1CCC[C@H]1C(=O)N[C@@H](C)C(=O)N2 (stereo partly drawn) | 0.9 | 0.8 | 3 | 9
5 | CC(C)C[C@@H]1NC(=O)[C@H](CCC(=O)O)NC(=O)[C@@H]2CCCN2C(=O)[C@H](Cc2cnc[nH]2)NC(=O)[C@H](CC(N)=O)NC(=O)[C@H](C(C)C)NC(=O)[C@H](Cc2cnc[nH]2)NC(=O)[C@@H]2CSSC[C@H](NC(=O)CN)C(=O)N[C@@H](CSSC[C@@H](C(N)=O)NC1=O)C(=O)N[C@@H](CO)C(=O)N[C@@H](Cc1cnc[nH]1)C(=O)N1CCC[C@H]1C(=O)N[C@@H](C)C(=O)N2 | -0.4 | -0.9 | > 3 | < 3
6 | CC(C)C[C@@H]1NC(=O)[C@H](CC(C(=O)O)C(=O)O)NC(=O)[C@@H]2CCCN2C(=O)[C@H](Cc2cnc[nH]2)NC(=O)[C@H](CC(N)=O)NC(=O)[C@H](C(C)C)NC(=O)[C@H](CO)NC(=O)[C@@H]2CSSC[C@H](NC(=O)CN)C(=O)N[C@@H](CSSC[C@@H](C(N)=O)NC1=O)C(=O)N[C@@H](CO)C(=O)N[C@@H](Cc1cnc[nH]1)C(=O)N1CCC[C@H]1C(=O)N[C@@H](C)C(=O)N2 | 0.4 | 0.5 | 3 | 3
7 | CC(C)C[C@@H]1NC(=O)C(CCCCCC(=O)O)NC(=O)[C@@H]2CCCN2C(=O)[C@H](Cc2cnc[nH]2)NC(=O)[C@H](CC(N)=O)NC(=O)[C@H](C(C)C)NC(=O)[C@H](CO)NC(=O)[C@@H]2CSSC[C@H](NC(=O)CN)C(=O)N[C@@H](CSSC[C@@H](C(N)=O)NC1=O)C(=O)N[C@@H](CO)C(=O)N[C@@H](Cc1cnc[nH]1)C(=O)N1CCC[C@H]1C(=O)N[C@@H](C)C(=O)N2 (stereo partly drawn) | 1.2 | 0.7 | 3 | 15
8 | CCCC[C@@H]1NC(=O)[C@H](CCC(=O)O)NC(=O)[C@@H]2CCCN2C(=O)[C@H](Cc2cnc[nH]2)NC(=O)[C@H](CC(N)=O)NC(=O)[C@H](C(C)C)NC(=O)[C@H](CO)NC(=O)[C@@H]2CSSC[C@H](NC(=O)CN)C(=O)N[C@@H](CSSC[C@@H](C(N)=O)NC1=O)C(=O)N[C@@H](CO)C(=O)N[C@@H](Cc1cnc[nH]1)C(=O)N1CCC[C@H]1C(=O)N[C@@H](C)C(=O)N2 | 0.5 | 0.3 | < 3 | 3
9 | CC(C)[C@@H]1NC(=O)[C@H](CCC(=O)O)NC(=O)[C@@H]2CCCN2C(=O)[C@H](Cc2cnc[nH]2)NC(=O)[C@H](CC(N)=O)NC(=O)[C@H](C(C)C)NC(=O)[C@H](CO)NC(=O)[C@@H]2CSSC[C@H](NC(=O)CN)C(=O)N[C@@H](CSSC[C@@H](C(N)=O)NC1=O)C(=O)N[C@@H](CO)C(=O)N[C@@H](Cc1cnc[nH]1)C(=O)N1CCC[C@H]1C(=O)N[C@@H](C)C(=O)N2 | 0.1 | -0.3 | < 3 | < 3
10 | CC(C)C[C@@H]1NC(=O)[C@H](CC(=O)O)NC(=O)[C@@H]2CCCN2C(=O)[C@H](Cc2cnc[nH]2)NC(=O)[C@H](CC(N)=O)NC(=O)[C@H](C(C)C)NC(=O)[C@H](CO)NC(=O)[C@@H]2CSSC[C@H](NC(=O)CN)C(=O)N[C@@H](CSSC[C@@H](C(N)=O)NC1=O)C(=O)N[C@@H](CO)C(=O)N[C@@H](Cc1cnc[nH]1)C(=O)N1CCC[C@H]1C(=O)N[C@@H](C)C(=O)N2 | 0.3 | 0.6 | 3 | < 2
11 | CC(C)C[C@@H]1NC(=O)[C@H](CCC(=O)O)NC(=O)[C@H](CO)NC(=O)[C@H](Cc2cnc[nH]2)NC(=O)[C@H](CC(N)=O)NC(=O)[C@H](C(C)C)NC(=O)[C@H](CO)NC(=O)[C@@H]2CSSC[C@H](NC(=O)CN)C(=O)N[C@@H](CSSC[C@@H](C(N)=O)NC1=O)C(=O)N[C@@H](CO)C(=O)N[C@@H](Cc1cnc[nH]1)C(=O)N1CCC[C@H]1C(=O)N[C@@H](C)C(=O)N2 | 0.5 | -0.1 | < 3 | 3
12 | CC(C)C[C@@H]1NC(=O)[C@H](CCC(=O)O)NC(=O)[C@@H]2CCCN2C(=O)[C@H](Cc2cnc[nH]2)NC(=O)[C@H](CC(=O)O)NC(=O)[C@H](C(C)C)NC(=O)[C@H](CO)NC(=O)[C@@H]2CSSC[C@H](NC(=O)CN)C(=O)N[C@@H](CSSC[C@@H](C(N)=O)NC1=O)C(=O)N[C@@H](CO)C(=O)N[C@@H](Cc1cnc[nH]1)C(=O)N1CCC[C@H]1C(=O)N[C@@H](C)C(=O)N2 | 1.3 | 1.7 | – | 18
13 | CC(C)C[C@@H]1NC(=O)[C@H](CCC(=O)O)NC(=O)[C@@H]2CCCN2C(=O)[C@H](Cc2cnc[nH]2)NC(=O)[C@H](CC(N)=O)NC(=O)[C@H](C(C)C)NC(=O)[C@H]([C@@H](C)O)NC(=O)[C@@H]2CSSC[C@H](NC(=O)CN)C(=O)N[C@@H](CSSC[C@@H](C(N)=O)NC1=O)C(=O)N[C@@H](CO)C(=O)N[C@@H](Cc1cnc[nH]1)C(=O)N1CCC[C@H]1C(=O)N[C@@H](C)C(=O)N2 | -0.5 | -0.1 | – | 3
14 | CC(C)C[C@@H]1NC(=O)[C@H](CCC(=O)O)NC(=O)[C@@H]2CCCN2C(=O)[C@H](Cc2cnc[nH]2)NC(=O)[C@H](CCCCC(=O)O)NC(=O)[C@H](C(C)C)NC(=O)[C@H](CO)NC(=O)[C@@H]2CSSC[C@H](NC(=O)CN)C(=O)N[C@@H](CSSC[C@@H](C(N)=O)NC1=O)C(=O)N[C@@H](CO)C(=O)N[C@@H](Cc1cnc[nH]1)C(=O)N1CCC[C@H]1C(=O)N[C@@H](C)C(=O)N2 | 0.4 | 0.3 | – | 3

From ChEMBL document CHEMBL4811225 (J Med Chem, 2021)
